Compound potency records, mixed from different reports. Data source: NIAID ChemDB in PubChem.

All rows: growth or infection tests; species: Candida albicans; endpoint: MIC

Rows are shuffled and stem from different studies. Blank or dashed fields: not listed here. Two numbers with a dash give a range or band.

Cc1ccc2oc(=O)ccc2c1 ; strain or isolate: ATCC 14053 ; value: 500 µg/mL
C=CCc1ccc(O)c(-c2ccc(O)c(CC=C)c2)c1 ; strain or isolate: YL 349 ; read by: broth dilution ; value: 64 µg/mL
CC(Cc1ccc(C(C)(C)C)cc1)CN1CC(C)OC(C)C1 ; strain or isolate: YAG171 (genotype RBP1/RBP1) ; value: 3.12 µg/mL
CC(C)(C)C1CCC(CN2C3=NC[C@H](CC4CCCCC4)N3C[C@H]2C2CCCCC2)CC1 ; strain or isolate: ATCC 10231 ; value: 10–16 µg/mL
O=[N+]([O-])c1ccc2c(c1)CCc1[se]nnc1-2 ; value: 12.5 µg/mL
C[C@@H]1[C@H](O)[C@@H](C)/C=C/C=C/C=C/C=C/C=C/C=C/C=C/[C@H](OC2O[C@@H](C)[C@H](O)[C@@H](N)[C@H]2O)C[C@@H]2OC(O)(C[C@@H](O)C[C@@H](O)[C@H](O)CC[C@@H](O)C[C@@H](O)CC(=O)C[C@H]1C)C[C@H](O)[C@H]2C(=O)O ; strain or isolate: MTCC 7315 ; value: 300 µg/mL
CN1CCC2=C(CCCC2CCc2ccc(Cl)c(Cl)c2)C1 ; strain or isolate: 1208E ; value: 31 µg/mL
COc1ccc(-c2cc(-c3ccc4oc(=O)c(-c5ccccc5)c(C)c4c3)nc3c2oc2ccccc23)cc1 ; strain or isolate: MTCC 227 ; read by: broth dilution / turbidity ; value: 1000 µg/mL
CC(C)(C)c1ccc(CN(Cc2cccc3ccccc23)N2C=NNC2)cc1 ; value: >200 µM
O=c1c2ccccc2ncn1NC(c1ccc(Cl)cc1)P(=O)(Oc1ccccc1)Oc1ccccc1 ; read by: agar diffusion / agar ; value: 100 µg/mL
COc1ccc2c(c1OC)CN(C)c1c-2ccc2cc3c(cc12)OCO3 ; strain or isolate: ATCC 10231 ; value: 18.7 µg/mL
O=[N+]([O-])c1ccc(/C=C/c2ncc([N+](=O)[O-])s2)o1 ; strain or isolate: E-3 ; value: 4 µg/mL
Cc1ccc(-c2cc(-c3ccc4oc(=O)c(-c5ccccc5)c(C)c4c3)nc3c2oc2ccccc23)cc1 ; strain or isolate: MTCC 227 ; read by: broth dilution / turbidity ; value: 250 µg/mL
C[C@H]1[C@H](O)[C@@H](C)/C=C/C=C/C=C/C=C/C=C/C=C/C=C/[C@H](O[C@@H]2O[C@H](C)[C@@H](O)[C@H](N)[C@@H]2O)C[C@@H]2O[C@](O)(C[C@@H](O)C[C@@H](O)CC[C@H](O)[C@@H](O)C[C@@H](O)CC(=O)O[C@H]1C)C[C@H](O)[C@H]2C(=O)O ; strain or isolate: SKF ; value: 0.03 µg/mL
S=C([S][Sn]([c]1ccccc1)([c]1ccccc1)[c]1ccccc1)N1CCCC1 ; strain or isolate: Drug-resistant isolate ; value: 1.25 µg/mL
C[C@@H](c1nc(-c2ccc(C#N)cc2)cs1)[C@](O)(Cn1cnnc1)c1ccc(F)cc1F ; strain or isolate: Isogenic isolate 11 (25X) ; value: ≤0.008 µg/mL
C1CCC([C@H]2CN=C3N2C[C@@H](C2CCCCC2)N3CCC23CC4CC(CC(C4)C2)C3)CC1 ; strain or isolate: ATCC 10231 ; value: 11–16 µg/mL
CCN1c2ccccc2N(CCc2ccccc2)C1C(=S)Nc1ccccc1 ; value: 400 µg/mL
Cc1cc(C)c(C(=O)/C=C/c2cc3ccccc3nc2Cl)o1 ; strain or isolate: ATCC 10231 ; value: >50 µg/mL
O=c1c2ccccc2ncn1NC(c1ccc(O)cc1O)P(=O)(Oc1ccccc1)Oc1ccccc1 ; read by: agar diffusion / agar ; value: 10 µg/mL
Cc1c(-c2ccccc2)c(=O)oc2ccc(-c3cc(-c4ccc(F)cc4)c4c(n3)-c3ccccc3C4)cc12 ; strain or isolate: MTCC 227 ; read by: broth dilution / turbidity ; value: 1000 µg/mL
O=C(O)/C=C/c1ccc(O)c(O)c1 ; strain or isolate: ATCC 90028 ; read by: XTT ; setting: biofilm ; value: 500 µg/mL
Cc1cccc(N(C)C(=S)Oc2ccc3ccccc3c2)c1 ; strain or isolate: 57 strains ; value: >100 µg/mL
S=C([S][Sn]([CH]1CCCCC1)([CH]1CCCCC1)[CH]1CCCCC1)N1CCCC1 ; strain or isolate: ATCC 18804 ; value: >250 µg/mL
COc1cc(OC)cc(N2C3CCC2CC(c2cnc(N)nc2N)C3)c1 ; strain or isolate: YEM13 (BENUP) ; value: >64 µg/mL
S=C([S][Sn]([S]C(=S)N1CCCC1)([c]1ccccc1)[c]1ccccc1)N1CCCC1 ; strain or isolate: ATCC 18804 ; value: 50 µg/mL
Cc1cc(Cl)nc(NC(c2ccc(O)cc2O)P(=O)(Oc2ccccc2)Oc2ccccc2)n1 ; read by: agar diffusion / agar ; value: 10 µg/mL
CC(C)(C)C1CCC(CN2C3=NC[C@H](C4CCCCC4)N3C[C@@H]2C2CCCCC2)CC1 ; strain or isolate: ATCC 10231 ; value: 32–64 µg/mL
CN(C/C=C/c1ccccc1)Cc1cccc2ccccc12 ; strain or isolate: Clinical isolate delta 63 ; value: 50 µg/mL
CC(=O)Oc1ccc2oc(=O)ccc2c1 ; strain or isolate: ATCC 14053 ; value: 500 µg/mL
Nc1nnc(-c2cnc([N+](=O)[O-])s2)s1 ; strain or isolate: E-3 ; value: 125 µg/mL
COc1cc(C(=O)O)ccc1O ; strain or isolate: ATCC 90028 ; read by: XTT ; setting: biofilm ; value: 4000 µg/mL
CC(=O)OC1C=COC=C2CC34SSC5(CC6=COC=CC(OC(C)=O)C6N5C3=O)C(=O)N4C21 ; strain or isolate: E83 ; value: 10 µg/mL
COc1ccc(C(=O)/C=C/c2cc3ccccc3nc2Cl)c(OC)c1 ; strain or isolate: ATCC 10231 ; value: >50 µg/mL
CN1CCC2=C(CCCC2(Cc2ccccc2)Cc2ccccc2)C1 ; strain or isolate: C316 ; value: 62 µg/mL
COc1cc2cc(/C=C/C(=O)c3ccc(Cl)cc3)c(Cl)nc2cc1OC ; strain or isolate: ATCC 10231 ; value: >50 µg/mL
CCN1C2=NC[C@H](Cc3ccccc3)N2C[C@@H]1C1CCCCC1 ; strain or isolate: ATCC 10231 ; value: >64 µg/mL
O=[N+]([O-])c1ccc2c(c1)CCc1snnc1-2 ; value: 12.5 µg/mL
CN1CCC2=C(CCCC2CCc2cccc(Cl)c2)C1 ; strain or isolate: 2402E ; value: 16 µg/mL
CCN(CC)C(=S)[S][Sn]([CH]1CCCCC1)([CH]1CCCCC1)[CH]1CCCCC1 ; strain or isolate: ATCC 18804 ; value: >250 µg/mL
Cc1cc(Cl)nc(NC(c2cccc([N+](=O)[O-])c2)P(=O)(Oc2ccccc2)Oc2ccccc2)n1 ; read by: agar diffusion / agar ; value: 10 µg/mL
CCN(CC)C(=S)[S][Sn]([c]1ccccc1)([c]1ccccc1)[c]1ccccc1 ; strain or isolate: Drug-resistant isolate ; value: 5 µg/mL
CCn1c(=[Te])n(CCc2ccccc2)c2ccccc21 ; value: 400 µg/mL
Cc1ccc(-c2cc(-c3ccc4oc(=O)c(-c5ccccc5)c(C)c4c3)nc3c2CCc2ccccc2-3)cc1 ; strain or isolate: MTCC 227 ; read by: broth dilution / turbidity ; value: 500 µg/mL
CCN1c2ccccc2N(CCc2ccccc2)C1C1C(=O)N(c2ccccc2)C(=O)N1c1ccccc1 ; value: 50 µg/mL
C/C=C/C(C)=C/C(C)C(=O)CC1CC(CC(N)=O)CC(=O)O1 ; strain or isolate: IFO 1594 ; value: >100 µg/mL
CC(C)=CCC/C(C)=C/CC/C(C)=C/CO ; strain or isolate: ATCC 90028 ; read by: XTT ; setting: biofilm ; value: 500 µg/mL
Cc1cnccc1CCCc1ccc(Br)cc1 ; strain or isolate: C316 ; value: 31 µg/mL
OC(Cn1cncn1)(Cn1cncn1)c1ccc(F)cc1F ; strain or isolate: ATCC 90028 ; value: 0.12 µg/mL
CC1=C(CCCc2ccc(F)cc2)CCN(C)C1 ; strain or isolate: C316 ; value: 31 µg/mL
CCCCCCCCCCCCCCCCCCCO ; strain or isolate: ATCC 10231 ; read by: broth dilution ; value: 200 µg/mL
O=[N+]([O-])Sc1ccc2c(c1)-c1nn[se]c1CC2 ; value: 12.5 µg/mL
CCN1C2=NC[C@H](C(C)(C)C)N2C[C@@H]1Cc1ccccc1 ; strain or isolate: ATCC 10231 ; value: >250 µg/mL
C(=C\c1ccccc1)/CN(Cc1cccc2ccccc12)n1cncn1 ; value: >200 µM
CC(C)=CCC/C(C)=C/CC/C(C)=C/CC[C@@]1(C)[C@H](CCCO)/C(=C(/C)C=O)CC[C@]1(C)O ; strain or isolate: 127 ; value: >50 µg/mL
Cc1c(-c2ccccc2)c(=O)oc2ccc(-c3cc(-c4ccc(Cl)cc4)c4c(n3)-c3ccccc3C4)cc12 ; strain or isolate: MTCC 227 ; read by: broth dilution / turbidity ; value: 1000 µg/mL
CCn1c(=S)n(CCc2ccccc2)c2ccccc21 ; value: >800 µg/mL
COc1cc(Cc2cnc(N)nc2N)cc(OC)c1OCCCNc1ccc(S(=O)(=O)c2ccc(N)cc2)cc1 ; strain or isolate: YEM30 (WT) ; value: >64 µg/mL
CN1CCC2=C(CCCC2CCc2ccc(Cl)cc2Cl)C1 ; strain or isolate: C316 ; value: 16 µg/mL
CC(C)(C)C1CCC(CN2C3=NC[C@@H](CC4CCCCC4)N3C[C@@H]2C2CCCCC2)CC1 ; strain or isolate: ATCC 10231 ; value: 16–32 µg/mL
C[C@@H]1[C@H](O)[C@@H](C)/C=C/C=C/CC/C=C/C=C/C=C/C=C/C(O[C@H]2O[C@H](C)[C@@H](O)[C@H](N)[C@@H]2O)CC2O[C@](O)(CC(O)C(O)CCC(O)CC(O)CC(O)CC(=O)O[C@H]1C)CC(O)C2C(=O)O ; strain or isolate: ATCC 90028 ; value: 0.5 µg/mL
COc1cccc(/C=C/C(=O)c2ccccc2)c1OC ; strain or isolate: ATCC 10231 ; value: >50 µg/mL
COc1cc2oc(=O)ccc2c2c1C=CC(C)(C)O2 ; strain or isolate: ATCC 14053 ; value: 500 µg/mL
O=C(O[C@@H]1O[C@@H]2COC(=O)c3cc(O)c(O)c(O)c3-c3c(cc(O)c(O)c3O)C(=O)O[C@H]([C@H]1O)[C@@H]2O)c1cc(O)c(O)c(O)c1 ; strain or isolate: ATCC 10231 ; read by: visual reading ; value: 62.5 µg/mL
Clc1ccc(CCC2CCCc3cnccc32)cc1 ; strain or isolate: 2005E ; value: 8 µg/mL
C=C(C)c1cc2c(ccc3ccc(=O)oc32)o1 ; strain or isolate: ATCC 14053 ; value: 500 µg/mL
COc1ccc(/C=C/C(=O)c2ccccc2)cc1OC ; strain or isolate: ATCC 10231 ; value: >50 µg/mL
COCCN1CN(CCc2ccccc2)c2ccccc21 ; value: 400 µg/mL
O=C(/C=C/c1ccccc1)c1ccccc1 ; strain or isolate: ATCC 10231 ; value: >50 µg/mL
CN1CCC2=C(CCCC2CCc2c(Cl)cccc2Cl)C1 ; strain or isolate: 2402E ; value: 16 µg/mL
Cc1c(-c2ccccc2)c(=O)oc2ccc(-c3cc(-c4ccccc4)c4oc5ccccc5c4n3)cc12 ; strain or isolate: MTCC 227 ; read by: broth dilution / turbidity ; value: 500 µg/mL
CC(C/C=C/C=C/CC/C=C\C=C\CCC(C)(C)C)C(O)C(O)C(O)C(O)C(O)C1OC(=O)C(O)C1O ; strain or isolate: A9540 ; value: 3.1 µg/mL
COC(=O)[C@]12CCC(C)(C)C=C1C1CCC3[C@@]4(C)CCC(=O)C(C)(C)C4CC[C@@]3(C)[C@]1(C)CC2 ; strain or isolate: ATCC 10231 ; read by: broth dilution ; value: 200 µg/mL
C1CCC(C[C@@H]2CN=C3N2C[C@H](C2CCCCC2)N3CCC23CC4CC(CC(C4)C2)C3)CC1 ; strain or isolate: ATCC 10231 ; value: 10–16 µg/mL
C=C(C)C1Cc2cc3ccc(=O)oc3cc2O1 ; strain or isolate: ATCC 14053 ; value: 500 µg/mL
C=CCc1ccc(O)c(OC)c1 ; strain or isolate: ATCC 90028 ; read by: XTT ; setting: biofilm ; value: 500 µg/mL
COc1ccc(-c2cc(-c3ccc4oc(=O)c(-c5ccccc5)c(C)c4c3)nc3c2Cc2ccccc2-3)cc1 ; strain or isolate: MTCC 227 ; read by: broth dilution / turbidity ; value: >1000 µg/mL
CC(C)(C)c1ccc(CN(Cc2cccc3ccccc23)n2cnnc2)cc1 ; value: >200 µM
C[C@@H]1C=C2C3CCC4[C@@]5(C)CC[C@@H](O)C(C)(C)C5CC[C@@]4(C)[C@]3(C)CC[C@@]2(C(=O)O)CC1 ; strain or isolate: ATCC 10231 ; read by: broth dilution ; value: >200 µg/mL

A second listing of 8 rows from above:

| structure | strain or isolate | read by | setting | value |
|---|---|---|---|---|
| C=CCc1ccc(O)c(-c2ccc(O)c(CC=C)c2)c1 | YL 349 | broth dilution |  | 64 µg/mL |
| CCN1C2=NC[C@H](C(C)(C)C)N2C[C@@H]1Cc1ccccc1 | ATCC 10231 |  |  | >250 µg/mL |
| CN1CCC2=C(CCCC2CCc2c(Cl)cccc2Cl)C1 | 2402E |  |  | 16 µg/mL |
| CC(C)=CCC/C(C)=C/CC/C(C)=C/CC[C@@]1(C)[C@H](CCCO)/C(=C(/C)C=O)CC[C@]1(C)O | 127 |  |  | >50 µg/mL |
| O=[N+]([O-])Sc1ccc2c(c1)-c1nn[se]c1CC2 |  |  |  | 12.5 µg/mL |
| COCCN1CN(CCc2ccccc2)c2ccccc21 |  |  |  | 400 µg/mL |
| CCN(CC)C(=S)[S][Sn]([c]1ccccc1)([c]1ccccc1)[c]1ccccc1 | Drug-resistant isolate |  |  | 5 µg/mL |
| CCn1c(=S)n(CCc2ccccc2)c2ccccc21 |  |  |  | >800 µg/mL |